Assay results from patent publication US12138304.

Key:
Assay in all cases: SPR; average of two replicate measures ± one standard deviation
[1] = target: BG505 F14 SOSIP (HIV-1 (clade A BG505))
[2] = target: BG505 F14/Vt8 SOSIP (HIV-1 (clade A BG505))
[3] = target: BG505 SOSIP (HIV-1 (clade A BG505))
[4] = target: BG505 Vt8 SOSIP (HIV-1 (clade A BG505))

## soluble CD4 (sCD4) (from UniProt P01730 26-390) (receptor)
[1]
  koff: 0.00113 s⁻¹
  kon: 17200 M⁻¹ s⁻¹
[2]
  koff: 0.000452 s⁻¹
  kon: 29200 M⁻¹ s⁻¹
[3]
  koff: 0.00061 s⁻¹
  kon: 11200 M⁻¹ s⁻¹
[4]
  koff: 0.000781 s⁻¹
  kon: 9440 M⁻¹ s⁻¹
